PubChem BioAssay AID504761 – Drosophila RNAi Screening Center, 2011
Test: 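Insect host genes that dengue virus relies on to spread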 (primary screen). System: D.Mel-2 cells from Drosophila. Knock-down reagent: long dsRNA against Drosophila genes. Conditions: infection with dengue virus type 2; dose and infection time not stated. Measured: 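Cells stained for dengue envelope protein and imaged; percent of infected cells per well on duplicate plates, ranked by infection, with stained nuclei counted for cell number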. Direction: infection score: higher = more virus-infected cells; cell count: higher = more cells in the well. Hit rule: 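Very low infection ranking in both replicate wells (chance probability at most 0.065), then a retest showing infection dropped 1.5-fold or more at p below 0.05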. Calls: active = confirmed: knock-down lowers infection; inactive = not picked or not confirmed.
The deposit covers about 22,000 reagents; below is a random part of those that have a named target and a result. In the full data, 116 (0.52%) are marked active. 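Calls depend on retest data that are not deposited; infection was ranked per plate without normalising between plates; the unit of the infection score is not given.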 Raw values vary from plate to plate and are shown uncorrected. A plus sign joins genes that one reagent is predicted to hit. Not stated in the record: the amount of reagent, the time to read-out.

target gene	dsRNA	infection score, replicate 1	infection score, replicate 2	cell count, replicate 1	cell count, replicate 2	outcome
Su(fu) (Suppressor of fused)	DRSC16871	24.9	28.2	4544	5754	inactive
CG2061	DRSC19348	8.67	1.86	6203	6167	inactive
CG4983	DRSC02799	14.5	10.1	6126	6096	inactive
CG4983	DRSC26444	0.64	3.93	6556	6591	inactive
CG30043	DRSC06285	15.1	7.26	4797	6075	inactive
CG14135	DRSC10140	1.22	2.83	6043	6437	inactive
Ddr (Discoidin domain receptor)	DRSC02150	1.75	0.85	6565	6460	inactive
Ddr (Discoidin domain receptor)	DRSC03229	2.08	2.29	6353	6641	inactive
Ddr (Discoidin domain receptor)	DRSC03230	3.26	2.64	6527	6095	inactive
Ddr (Discoidin domain receptor)	DRSC22818	1.29	12.5	6204	5734	inactive
Patronin	DRSC06756	12.8	6.86	5800	5624	inactive
Patronin	DRSC06757	14.7	8.01	5509	5330	inactive
Patronin	DRSC06994	4.59	18.6	5560	5980	inactive
CG1724	DRSC20548	4.48	3.43	6428	5740	inactive
CG1724	DRSC25668	4.5	2.93	5949	6017	inactive
SNF4Agamma (SNF4/AMP-activated protein kinase gamma subunit)	DRSC13461	1.5	3.57	5817	5857	inactive
SNF4Agamma (SNF4/AMP-activated protein kinase gamma subunit)	DRSC13463	0.89	2	6079	6500	inactive
SNF4Agamma (SNF4/AMP-activated protein kinase gamma subunit)	DRSC15879	12.9	13.8	5611	5362	inactive
SNF4Agamma (SNF4/AMP-activated protein kinase gamma subunit)	DRSC16847	3.59	3.71	4148	4501	inactive
CG8757	DRSC11039	0.35	1.7	6624	6358	inactive
CG8757	DRSC24587	4.79	3.87	6622	6225	inactive
CG3108	DRSC18280	8.61	10	581	6251	inactive
Jon99Cii (Jonah 99Cii)	DRSC16858	7.9		6559	311	inactive
Jon99Cii (Jonah 99Cii)	DRSC22574	18.7	3.43	5821	6243	inactive
scpr-B (SCP-containing protein B)	DRSC15200	8.15	7.09	6932	6816	inactive
achi (achintya)	DRSC07276	5.17	7.6	6327	6675	inactive
achi (achintya)	DRSC24803	16.5	16.1	4681	4329	inactive
CG31128	DRSC13675	2.54	1.63	6306	6214	inactive
CG33125	DRSC00145	4.78	1.19	5105	5566	inactive
CG33125	DRSC28619	3.12		1795	380	inactive
blp (black pearl)	DRSC15757	4.31	23.6	5223	4089	inactive
blp (black pearl)	DRSC28887	12.5	0.44	1473	457	inactive
Fic (Fic domain-containing protein)	DRSC03247	1.41	4.78	6042	6006	inactive
CG8927	DRSC16458	1.62	6.6	6356	6122	inactive
CG8927	DRSC25722	3.16	4.29	6620	6343	inactive

Next part; the last 8 above are carried over.
target gene	dsRNA	infection score, replicate 1	infection score, replicate 2	cell count, replicate 1	cell count, replicate 2	outcome
CG31128	DRSC13675	2.54	1.63	6306	6214	inactive
CG33125	DRSC00145	4.78	1.19	5105	5566	inactive
CG33125	DRSC28619	3.12		1795	380	inactive
blp (black pearl)	DRSC15757	4.31	23.6	5223	4089	inactive
blp (black pearl)	DRSC28887	12.5	0.44	1473	457	inactive
Fic (Fic domain-containing protein)	DRSC03247	1.41	4.78	6042	6006	inactive
CG8927	DRSC16458	1.62	6.6	6356	6122	inactive
CG8927	DRSC25722	3.16	4.29	6620	6343	inactive
scny (scrawny)	DRSC10509	12.7	4.68	5520	6201	inactive
scny (scrawny)	DRSC23229	0.92	20.7	6506	5982	inactive
scny (scrawny)	DRSC27520	2.93	6.13	6621	6411	inactive
CG5357 (retired record)	DRSC04497	6.29	5.79	6499	6510	inactive
CG5357 (retired record)	DRSC25149	2.08	1.52	6289	6046	inactive
CG33483	DRSC14019	6.58	4.74	6273	6420	inactive
CG6426	DRSC06985	14.6	6.38	6345	6892	inactive
Sik3 (Salt-inducible kinase 3)	DRSC06505	4.15	3.56	6266	5780	inactive
Sik3 (Salt-inducible kinase 3)	DRSC06771	4.09	5.87	6634	6420	inactive
Sik3 (Salt-inducible kinase 3)	DRSC29149	5.22	11.5	4844	5152	inactive
Sik3 (Salt-inducible kinase 3)	DRSC29722	30.9	6.47	5323	5978	inactive
Lcch3 (Ligand-gated chloride channel homolog 3)	DRSC20257	2.87	6.3	6831	6444	inactive
Lcch3 (Ligand-gated chloride channel homolog 3)	DRSC22175	3.15	12.5	6340	5998	inactive
CG14694	DRSC14917	2.38	2.44	6059	6236	inactive
CG12898	DRSC06213	15.3	7.78	6056	6765	inactive
CG14459	DRSC23039	1.09	1.89	6424	6816	inactive
Teh4 (tipE homolog 4)	DRSC08457	3.88	1.06	5663	5402	inactive
Bro	DRSC08149	2.82	3.62	5992	6276	inactive
CG3065	DRSC24998	9.92	15.4	5779	5724	inactive
stas (Stasimon)	DRSC20104	5.38	1.48	6730	6364	inactive
Vps51 (Vacuolar protein sorting 51)	DRSC06519	9.56	10.6	3629	3853	inactive
CG32846	DRSC08012	0.55	0.19	6532	6462	inactive
CG32846	DRSC27074	5.18	2.56	6280	6940	inactive
CG10300	DRSC14225	15.2	16	5265	5340	inactive
Polr1D + DCTN6-p27	DRSC02094		4.51	490	6763	inactive
Alg14 (ALG14, UDP-N-acetylglucosaminyltransferase subunit)	DRSC19983	1.14	1.19	6659	7070	inactive
Vhl (von Hippel-Lindau)	DRSC07716	17.3	7.96	5512	3178	inactive
Vhl (von Hippel-Lindau)	DRSC28332	15.3	6.33	5266	6331	inactive
CG33521	DRSC17211	4.67	3.02	6099	5491	inactive
CG33521	DRSC22919	3.42	13.6	6939	5906	inactive
CG33521	DRSC29186	17.2	16	4447	5762	inactive
CG11755	DRSC14374	6.21	12.8	5955	4822	inactive
CG11755	DRSC26076	6.21	3.46	6019	6668	inactive
GM130 (Golgi matrix protein 130 kD)	DRSC04617	14.5	18.2	6287	5640	inactive
CG10343	DRSC02041	7.8	4.98	1795	6228	inactive
CG10343	DRSC27740	9.9	17.9	6740	6713	inactive
daed (daedalus)	DRSC00299	7.59	7.28	5833	5635	inactive
Gyc89Db (Guanylyl cyclase at 89Db)	DRSC15009	14.9	15	5871	6654	inactive
qkr54B (quaking related 54B)	DRSC07670	23.5	11.3	4573	6003	inactive
qkr54B (quaking related 54B)	DRSC24863	2.26	3.44	6803	6775	inactive
